# Measurements taken from PMC6837752, “Effectiveness of four types of neuraminidase inhibitors approved in Japan for the treatment of influenza” (PLoS ONE, 2019).
# Target: neuraminidase of H275Y mutated influenza A/H1N1pdm09 virus isolates (Influenza A virus (H1N1pdm09), UniProt C3W5S3, H275Y)
# Format: biochemical
# Details: read-out: 50% inhibitory concentration
smiles,measurement,value
"CC(=O)N[C@H]1[C@H]([C@H](O)[C@H](O)CO)OC(C(=O)O)=C[C@@H]1N=C(N)N [Zanamivir, zanamivir]",pIC50,9.10

# pIC50: −log10 of the molar value.
